According to PMC8268162:

Key:
[1] = tested on: BrpR-His6; assay: DNase I footprinting; details: 1 uM protein, with or without 50 uM c-di-GMP, 40 mM Tris-Cl pH 7.9, 100 mM KCl, 10 mM MgCl2, 1 mM DTT, 0.1 mM EDTA, 0.1 ug/ul BSA, 0.1 ug poly(dI-dC) in 20 ul, 25 min at 30 C, recombinant protein, protein details: C-terminal His6, label: 6-FAM on reverse primer, probe letters rebuilt from the primers and the genome
[2] = tested on: BrpR-His6; assay: EMSA; details: 40 mM Tris-Cl pH 7.9, 100 mM KCl, 10 mM MgCl2, 1 mM DTT, 0.1 mM EDTA, 0.1 ug/ul BSA, 0.1 ug poly(dI-dC) in 20 ul, 25 min at 30 C, EMSA DNA 5 nM, footprinting DNA 40 nM, recombinant protein, protein details: C-terminal His6, label: 6-FAM on reverse primer, probe letters rebuilt from the primers and the genome
[3] = 50 uM c-di-GMP, full shift at 200 nM, self-competed
[4] = no c-di-GMP, affinity similar to with c-di-GMP

Measured: binding result

TTCCGTCCTTGTGCTCATCCCATATCCTTTTTAAATCACAGCCAATCAACATCCGTTTGCCATTTATCTAGGTTTGAATTGCGACATCATGGGCGAACCATATATTTCCTTTTCGCTTCCCATTTAGCTCAGTCGTCTCTGTCTTTTCAACCCTTAACAAGACAAATGTTTCGGTGATATTTCGCTTTCTAATATTCACACTTTAAGTGAGCGGTAGCGTATCAATGAGTATGAATAAGACAAACAGGCAACCGGCTCAAACAAGGTTTTTTCCTATAAATAAGACAATCGCTACCGCACT (double strand) [brpL upstream region]
binds: [1]; single site of 18-21 bp | [2]; [3] | [2]; [4]

CATCTTTCTCCCACATCTTCTACGATCTAATCCCGCCGACTAATCACAAAAATATACCATTCCTGATATCAATGTATCACATATGAGATGAATAAATTTTAGATTCACTTTTACTTAATTAGTATTTTAAAAGTGAATAAAACAGCCTTAAAGTTGTCTCTAGCACTTTGCGATTAGCTGAGTGCTTCTTAAAACAAAAATAGTATGAAGTATAAAATTTTAGAATGAGACGTTTCAGTATGGGTTGTAATATGGCAGACACAACGATTGTATTAGTCACTCAACAAAGCCTTCAGAGTGAGAATC (double strand) [brpT upstream region]
binds: [1]; single site of 18-21 bp | [2]; [3] | [2]; [4]

ATCCCTCCTCGCATTCTTCGCTCGCGCTCGGTAATATGCCTCTGAGTTTGCAATGTCTCATTGGTGCGACGAATGCTTTGGCGTTGTTACTTATTTGGGTGATCAATGTCGATTATTTGAAATATTAATTTGACAACTTCTTGACAGTGCTGGTGTCAAATTTATGTACATTGCGACCGTTTTTTCTCATCCAAACAATCATTCGTATCAATATCGACTTGTGTTTTTTAACAAGGTCTATGTGTTTCAAGGTTGTAGATAGGTTCTCGTAATGACTTCAAATAAAGCACTAAAGTTTGCCGATGA (double strand) [VV1_2302 upstream region]
binds: [1]; single palindromic site of 18-21 bp | [2]; 50 uM c-di-GMP, full shift at 100 nM (highest affinity), self-competed | [2]; [4]
